Patent publication US20220054630A1

Target: sE2 wild-type (UniProt P27958)
Assay: BLI

AR3A
Kd: 1.8 nM
